Assay results as given in patent publication US20160302455A1, “Methods Of Producing An Antimicrobial Solution And Methods For Reducing Bacteria On Produce And/Or Minimizing Enzymatic Browning Of Produce” (priority 2015, published 2016).

Key:
L. monocytogenes = format: cell-based, Listeria monocytogenes
E. coli O157:H7 [1] = format: cell-based, Escherichia coli O157:H7
E. coli O157:H7 [2] = format: cell-based, Escherichia coli O157:H7; remark: listed apart in the source

## OO [hydrogen peroxide]
L. monocytogenes
  ELR (Estimated log reduction) of L. monocytogenes, cantaloupe: 2.8 Log10 CFU/cm^2
  Surviving population of L. monocytogenes, cantaloupe rind surface, Treated: 1.09 ± 0.04B Log10 CFU/cm^2
E. coli O157:H7 [1]
  ELR (Estimated log reduction) of E. coli O157:H7, cantaloupe: 3.0 Log10 CFU/cm^2
  Surviving population of E. coli O157:H7, cantaloupe rind surface, Treated: 1.22 ± 0.04B Log10 CFU/cm^2
E. coli O157:H7 [2]
  Surviving population of E. coli O157:H7, watermelon rind surface, Treated: 0.53 ± 0.10A Log10 CFU/cm^2
